Anti-infective test results gathered from many reports (values: NIAID ChemDB through PubChem).

Shared fields: tests in culture

MIC50, MIC90 and the like: level of inhibition, or share of isolates inhibited.

smiles	agent	strain	method	conditions	measure	value
CCCCCCCCCCCC(CCCCCCCCCCC)NC(=O)NC(CCC(=O)O)(CCC(=O)O)CCC(=O)O	Mycobacterium abscessus	AAy-P-1			MIC	27 µg/mL
NC1CCN(c2c(F)cc3c(=O)c(C(=O)O)cn(C4CC4)c3c2Cl)C1	Mycobacterium fortuitum	25 isolates			MBC90	2 µg/mL
O=C(NNC(=O)c1ccncc1)Nc1ccc(Cl)c(C(F)(F)F)c1	Mycobacterium kansasii	My 6509/96	broth dilution	21 d	MIC100	125 µM
C[C@H]1C[C@H](N)CN1c1cc2c(cc1F)c(=O)c(C(=O)O)cn2-c1ccc(F)cc1F	Mycobacterium fortuitum	25 isolates			MBC90	>8 µg/mL
CC(=O)NC[C@H]1CN(c2ccc3c(c2)OCc2cncn2-3)C(=O)O1	Mycoplasma pneumoniae				MIC	4 µg/mL
COc1c(N2CCC(N)C2)c(F)cc2c(=O)c(C(=O)O)cn(C3CC3)c12	Mycobacterium smegmatis	G89C mutant			MIC99	4 µg/mL
CCCCCCCCCCCCCCCCCCCCCCCCCCCCCCOC(=O)NC(C)(CCC(=O)O)CCC(=O)O	Mycobacterium chelonae	EO-P-1			MIC	70 µg/mL
COc1c(N2CC[C@@H](CN)C2)c(F)cc2c(=O)c(C(=O)O)cn(C3CC3)c12	Mycobacterium smegmatis	G89C mutant			MIC99	1 µg/mL
CCCCCCCCCCCCc1ccc(NC(=O)C2=CCN(C)[C@@H]([C@H](O[C@@H]3O[C@H](CN)[C@@H](O)[C@H]3O)[C@H]3O[C@@H](n4ccc(=O)[nH]c4=O)[C@H](O)[C@@H]3O)C(=O)N2C)cc1	Mycobacterium vaccae	ATCC 15483			MIC	6.25 µg/mL
CCc1nc(N)nc(N)c1-c1ccc(Cl)cc1	Mycobacterium avium complex	DW26			MIC	32 µg/mL
CCCCCCCCCCCCCCCCCCCCCCCOC(=O)NC(CCC(=O)O)(CCC(=O)O)CCC(=O)O	Mycobacterium chelonae	EO-P-1			MIC	72 µg/mL
CC(=O)NC[C@H]1CN(c2ccc3c(c2)OCc2nnnn2-3)C(=O)O1	Mycoplasma pneumoniae				MIC	>32 µg/mL
O=C(COC(Cn1nnnc1-c1ccccc1)c1ccc(Cl)cc1)NNC(=S)Nc1ccccc1	Mycobacterium luteus	ATCC 21881	broth dilution		MIC	>200 µg/mL
O=C(NNC(=O)c1ccncc1)Nc1ccc(C(F)(F)F)cc1	Mycobacterium kansasii	My 6509/96	broth dilution	14 d	MIC100	125 µM
S=c1[nH]nc(COC(Cn2nnnc2-c2ccccc2)c2ccc(Cl)cc2)n1-c1ccccc1	Mycobacterium luteus	ATCC 21881	broth dilution		MIC	50 µg/mL
COc1ccc(-c2cn(CC3Cc4cn(-c5ccccc5)c5cccc(c45)C(=O)O3)nn2)cc1	Mycobacterium spp.	MC2 6230	visual reading		EC50	>100 µg/mL
O=C(NNC(=O)c1ccncc1)Nc1cc(Cl)cc(Cl)c1	Mycobacterium kansasii	My 235/80	broth dilution	7 d	MIC100	125 µM
CCc1cn(C2OC(CO)C(Br)C2F)c(=O)[nH]c1=O	Mycobacterium bovis BCG		resazurin		MIC60	10 µg/mL
O=C(COC(Cn1nnnc1Cc1ccccc1)c1ccc(Cl)cc1)NNC(=S)Nc1ccccc1	Mycobacterium luteus	ATCC 21881	broth dilution		MIC	100 µg/mL
NCCS	Mycobacterium abscessus	Clinical isolate MR313367D	broth dilution / visual reading		MIC100	62.5–125 µg/mL
O=C(O)COC(Cn1nnnc1-c1ccccc1)c1ccc(Cl)cc1	Mycobacterium luteus	ATCC 21881	broth dilution		MIC	>200 µg/mL
O=C1OC(Cn2cc(-c3ccccc3F)nn2)Cc2cn(-c3ccccc3)c3cccc1c23	Mycobacterium spp.	MC2 6230	visual reading		EC50	>100 µg/mL
Nc1nc(N)c2c(n1)NC(c1ccc3c(c1)OCO3)CC(c1ccc(F)cc1)=N2	Mycobacterium szulgai	MNT1100	MTT / broth dilution / absorbance	clinical isolate	MIC	>32 µg/mL
CC[C@H]1OC(=O)[C@H](C)[C@@H](O[C@H]2C[C@@](C)(OC)[C@@H](O)[C@H](C)O2)[C@H](C)[C@@H](O[C@@H]2O[C@H](C)C[C@H](N(C)C)[C@H]2O)[C@](C)(O)C[C@@H](C)C(=O)[C@H](C)[C@@H](O)[C@]1(C)O	Mycobacterium fortuitum	25 isolates			MBC90	>8 µg/mL
O=C(/C=C/c1ccc(O)cc1)OC[C@@H]1O[C@H](OC(=O)/C=C/c2ccc(O)cc2)[C@@H](O)[C@@H](O)[C@H]1O	Mycobacterium aurum		broth dilution / resazurin		MIC	125 µg/mL
O=C1OC(CSc2ccccc2)Cc2cn(-c3ccccc3)c3cccc1c23	Mycobacterium spp.	MC2 6230	visual reading		EC50	>100 µg/mL
C[C@@H]1CN(c2c(F)c(N)c3c(=O)c(C(=O)O)cn(C4CC4)c3c2F)C[C@H](C)N1	Mycobacterium fortuitum	ATCC 6841			MBC	0.5 µg/mL
CC1(C)N=C(N)N=C(N)N1OCCCOc1cc(Cl)c(Cl)cc1Cl	Mycobacterium avium complex	1625			MIC	2 µg/mL
CC(C)CCc1cn(CC2Cc3cn(-c4ccccc4)c4cccc(c34)C(=O)O2)nn1	Mycobacterium spp.	MC2 6230	visual reading		EC50	>100 µg/mL
CCCCCCCCCCCCCCCC(=O)NC(CCC(=O)O)(CCC(=O)O)CCC(=O)O	Mycobacterium chelonae	EO-P-1			MIC	36 µg/mL
O=C(NNC(=O)c1ccncc1)Nc1ccc(F)cc1Br	Mycobacterium kansasii	My 235/80	broth dilution	7 d	MIC100	>125 µM
COc1ccccc1-c1cn(CC2Cc3cn(-c4ccccc4)c4cccc(c34)C(=O)O2)nn1	Mycobacterium spp.	MC2 6230	visual reading		EC50	>100 µg/mL
Nc1nc(N)c2c(n1)NC(c1ccc3c(c1)OCO3)CC(c1ccc(Cl)cc1)=N2	Mycobacterium szulgai	MNT1100	MTT / broth dilution / absorbance	clinical isolate	MIC	16 µg/mL
NCC[C@H](O)C(=O)N[C@@H]1C[C@H](N)[C@@H](O[C@H]2O[C@H](CN)[C@@H](O)[C@H](O)[C@H]2O)[C@H](O)[C@H]1O[C@H]1O[C@H](CO)[C@@H](O)[C@H](N)[C@H]1O	Mycobacterium marinum	ATCC 927			MIC	0.4 µg/mL
O=C1OC(Cn2cc(-c3ccccc3)nn2)Cc2cn(-c3ccccc3)c3cccc1c23	Mycobacterium spp.	MC2 6230	visual reading		EC50	>100 µg/mL
CSc1nc(N)c2c(n1)NC(c1ccc(Cl)cc1)CC(c1ccc3c(c1)OCO3)=N2	Mycobacterium scrofulaceum	MNT1193	MTT / broth dilution / absorbance	clinical isolate	MIC	>32 µg/mL
CO[C@H]1/C=C/O[C@@]2(C)Oc3c(C)c(O)c4c(O)c(c(/C=N/N5CCN(C6CCCC6)CC5)c(O)c4c3C2=O)NC(=O)/C(C)=C\C=C\[C@H](C)[C@H](O)[C@@H](C)[C@@H](O)[C@@H](C)[C@H](OC(C)=O)[C@@H]1C	Mycobacterium avium intracellulare	21 strains			MIC50	0.5 µg/mL
CCCCCCCCCCCCCCCCOC(=O)NC(C)(CCC(=O)O)CCC(=O)O	Mycobacterium chelonae	EO-P-1			MIC	54 µg/mL
CC(=O)NC[C@H]1CN(c2ccc3c(c2)OC(C)(C)c2nccn2-3)C(=O)O1	Mycoplasma pneumoniae				MIC	>32 µg/mL
CCC1CN(c2c(F)cc3c(=O)[nH]c(=O)n(C4CC4)c3c2OC)CCN1	Mycobacterium smegmatis	G89C mutant			MIC99	200 µg/mL
CCCCCCCCc1ccc(NC(=O)NNC(=O)c2ccncc2)cc1	Mycobacterium kansasii	My 235/80	broth dilution	7 d	MIC100	250 µM
CC[C@H]1OC(=O)[C@H](C)[C@@H](O[C@H]2C[C@@](C)(OC)[C@@H](O)[C@H](C)O2)[C@H](C)[C@@H](O[C@@H]2O[C@H](C)C[C@H](N(C)C)[C@H]2O)[C@](C)(OC)C[C@@H](C)C(=O)[C@H](C)[C@@H](O)[C@]1(C)O	Mycobacterium fortuitum	25 isolates			MBC90	>8 µg/mL
CCC1CN(c2cc3c(cc2F)c(=O)c(C(=O)O)cn3C2CC2)CCN1	Mycobacterium smegmatis	A91V mutant			MIC99	0.5 µg/mL
Clc1ccc(C(Cn2nnnc2-c2ccccc2)OCc2nnc(Nc3ccccc3)o2)cc1	Mycobacterium luteus	ATCC 21881	broth dilution		MIC	100 µg/mL
O=C(NNC(=O)c1ccncc1)Nc1ccc(Br)cc1F	Mycobacterium kansasii	My 235/80	broth dilution	7 d	MIC100	>125 µM
CC(=O)NC[C@H]1CN(c2ccc3c(c2)sc2nccn23)C(=O)O1	Mycoplasma pneumoniae				MIC	16 µg/mL
O=C(NNC(=O)c1ccncc1)Nc1ccc(Br)cc1Br	Mycobacterium kansasii	My 235/80	broth dilution	21 d	MIC100	>125 µM
O=C1OC(Cn2cc(C3CC3)nn2)Cc2cn(-c3ccccc3)c3cccc1c23	Mycobacterium spp.	MC2 6230	visual reading		EC50	>100 µg/mL
CCCCc1ccc(NC(=O)NNC(=O)c2ccncc2)cc1	Mycobacterium kansasii	My 6509/96	broth dilution	21 d	MIC100	62.5 µM
CC(=O)NC[C@H]1CN(c2ccc3c(c2)OC(F)(F)c2nccn2-3)C(=O)O1	Mycoplasma pneumoniae				MIC	>32 µg/mL

For reference, 6 entries again:

smiles | agent | strain | method | conditions | measure | value
Nc1nc(N)c2c(n1)NC(c1ccc3c(c1)OCO3)CC(c1ccc(F)cc1)=N2 | Mycobacterium szulgai | MNT1100 | MTT / broth dilution / absorbance | clinical isolate | MIC | >32 µg/mL
O=C1OC(Cn2cc(-c3ccccc3)nn2)Cc2cn(-c3ccccc3)c3cccc1c23 | Mycobacterium spp. | MC2 6230 | visual reading |  | EC50 | >100 µg/mL
CC(=O)NC[C@H]1CN(c2ccc3c(c2)OC(F)(F)c2nccn2-3)C(=O)O1 | Mycoplasma pneumoniae |  |  |  | MIC | >32 µg/mL
O=C1OC(Cn2cc(C3CC3)nn2)Cc2cn(-c3ccccc3)c3cccc1c23 | Mycobacterium spp. | MC2 6230 | visual reading |  | EC50 | >100 µg/mL
CC(=O)NC[C@H]1CN(c2ccc3c(c2)OC(C)(C)c2nccn2-3)C(=O)O1 | Mycoplasma pneumoniae |  |  |  | MIC | >32 µg/mL
COc1c(N2CCC(N)C2)c(F)cc2c(=O)c(C(=O)O)cn(C3CC3)c12 | Mycobacterium smegmatis | G89C mutant |  |  | MIC99 | 4 µg/mL

ECn is the concentration giving n% inhibition of infection, replication or growth. Rows are shuffled and stem from different studies. An empty or dashed field is not shown. a–b is a range or a potency band.